A mixed list of measured activities; the numbers were collected in NIAID ChemDB.

Common to all: growth or infection tests; species: HIV-1; method: fluorescence; endpoint: EC50

An empty or dashed field is not shown.

smiles,setting,strain or isolate,cells,value
CN[C@@H](C)C(=S)N[C@H]1CCSC2CC(C)(C)[C@@H](C(=O)Nc3ccc(Cc4ccc(NC(=O)[C@H]5N6C(=O)[C@@H](NC(=S)[C@H](C)NC)CCSC6CC5(C)C)cc4)cc3)N2C1=O,-,-,Jurkat cells,0.5851 µM
CC(C)OC(=O)CCNP(=O)(CO[C@H](C)Cn1cnc2c(N)ncnc21)N[C@H](C)C(=O)OC(C)C,10% human serum,-,MT4-GFP,378 µM
C=CCOCc1cn(C2CCON2C(=O)OCc2ccccc2)c(=O)[nH]c1=O,-,NL4-3,CEM-GFP,10.1 µM
C[C@@H]([C@H]1CC[C@@]2(C)C3CCC4[C@](C)(C(=O)O[C@H]5O[C@@H](CO)[C@H](O)[C@@H](O)[C@@H]5O)[C@@H](O)C[C@H](O)[C@@]45C[C@@]35CC[C@]12C)[C@@H](O)C[C@H](O)C(C)(C)O,-,IIIB,H9,1.44 µM
CC1(C)C(=O)c2c(O)c(=O)c(C(=O)NCc3ccc(F)cc3F)cn2CC1NCCCP(=O)(O)O,100% human serum,NL4-3,MT4-GFP,1.935 µM
CN[C@@H](C)C(=S)N[C@@H]1CCSC2CC(C)(C)[C@H](C(=O)N[C@@H](COCCn3cc(COC[C@H](NC(=O)[C@H]4N5C(=O)[C@@H](NC(=S)[C@@H](C)NC)CCSC5CC4(C)C)c4ccccc4)nn3)c3ccccc3)N2C1=O,-,-,Jurkat cells,0.178 µM
O=C(CN1C(=O)NC2(CCCCC2)C1=O)N[C@@H](Cc1ccccc1)C(=O)Nc1ccccc1,-,NL4-3,-,>20 µM
CN[C@H](C)C(=O)N[C@H]1CCSC2CC(C)(C)[C@@H](C(=O)N[C@@H](COCc3cn(COC[C@@H](NC(=O)[C@H]4N5C(=O)[C@@H](NC(=O)[C@@H](C)NC)CCSC5CC4(C)C)c4ccccc4)nn3)c3ccccc3)N2C1=O,-,-,Jurkat cells,0.0959 µM
Cc1ccnc2c1NC(=O)c1cccnc1N2C1CC1,-,NL4-3,CEM-GFP,0.14 µM
Cc1ccc(N(C)C(=O)[C@H](Cc2ccccc2)NC(=O)CN2C(=O)NC3(CCCc4ccccc43)C2=O)cc1,-,NL4-3,-,>20 µM
CC(C)OC(=O)C[C@H](N[P@@](=O)(CO[C@H](C)Cn1cnc2c(N)ncnc21)NC(C)(C)C(=O)OC(C)C)C(C)C,10% human serum,-,MT4-GFP,4.7 µM
CCN(CC)c1ccc(/C=N/NC(=O)c2ccncc2)c(O)c1,-,92US657,TZM-bl,1.3 µM
C#CCOCc1cn(C2CCON2C(=O)OCc2ccccc2)c(=O)[nH]c1=O,-,NL4-3,CEM-GFP,0.69 µM
CCCCCOC(=O)C(C)(C)N[P@@](=O)(CO[C@H](C)Cn1cnc2c(N)ncnc21)N[C@@H](CC(=O)OC(C)C)C(C)C,50% human serum,-,MT4-GFP,170 µM
CCN(CC)c1ccc(/C=N/NC(=O)c2ccc(O)cc2O)c(O)c1,-,92US657,TZM-bl,0.9 µM
Cc1ccc(C)c2c1NC(=O)C2CC(=O)N[C@@H](Cc1ccccc1)C(=O)N(C)c1cccc(F)c1,-,NL4-3,-,2.8 µM
Cc1cn([C@H]2C[C@H](N=[N+]=[N-])[C@@H](CO)O2)c(=O)[nH]c1=O,-,IIIB,C8166,0.19 µM

A second listing of 2 rows from above:

{"smiles": "CCCCCOC(=O)C(C)(C)N[P@@](=O)(CO[C@H](C)Cn1cnc2c(N)ncnc21)N[C@@H](CC(=O)OC(C)C)C(C)C", "setting": "50% human serum", "cells": "MT4-GFP", "value": "170 µM"}
{"smiles": "Cc1ccc(C)c2c1NC(=O)C2CC(=O)N[C@@H](Cc1ccccc1)C(=O)N(C)c1cccc(F)c1", "strain or isolate": "NL4-3", "value": "2.8 µM"}

ECn is the concentration giving n% inhibition of infection, replication or growth. Rows are shuffled and stem from different studies.